# Assay results reported in patent publication EP1352977A2, “Novel Desulfitobacterium strain for the degradation of chloroalkenes” (UNIVERSITEIT GENT, priority 2002, dated 2003).
# Test system: Desulfitobacterium strain DCA1
# Assay: Substrate range determination: growth on and dechlorination product from chlorinated substrates
# Type: cell-based, Desulfitobacterium dichloroeliminans strain DCA1
# Details: for Product: substrate concentration 400 µM
SMILES,dechlorination product,Product
"C[C@H](Cl)[C@@H](C)Cl [meso-2,3-DCB, meso-2,3-dichlorobutane]",trans-2-butene,E-but-2-ene
"CC(Cl)C(C)Cl [L-2,3-DCB, L-2,3-dichlorobutane]",–,Z-but-2-ene
